Compound potency records, mixed from different reports. Data source: NIAID ChemDB in PubChem.

Common to all: growth or infection tests; species: Mycobacterium tuberculosis

Two numbers with a dash give a range or band. ECn: concentration that inhibits the pathogen or its effect by n%. Neighbouring rows are from separate reports. A number after MIC or MFC names an inhibition level or a share of isolates. MIC bound: limit read from a one-dose screen. An empty or dashed field is not shown. Inhibition is in % at the dose shown (toxicity tests: loss of growth or viability).

structure	cell line	strain or isolate	dose	read-out	read by	value
NC1CCN(CCCCn2ccc(Nc3cc(COCCCNC4CC4)ccn3)nc2=O)CC1	-	H37Rv	-	EC50	turbidity	0.5–1 µM
CCCCn1c(C)cc(O)c(-c2ccccc2)c1=O	-	H37Ra	-	MIC	-	32 µg/mL
c1ccc(CSc2nc3ccccc3[nH]2)nc1	-	My 331/88	-	MIC	-	500 µM
CON=C1CC2CN(c3ccc(N4C[C@H](CNC(C)=O)OC4=O)cc3F)CC2C1	-	H37Rv	-	MIC	resazurin	1 µg/mL
O=c1cc(-c2cnn(Cc3ccc(OC(F)(F)F)cc3)c2)[nH]c2ccccc12	-	H37Rv	5 µM	inhibition	fluorescence	38.7%
Cc1ccc2nc(SCc3cccc4ccccc34)[nH]c2c1	-	My 331/88	-	MIC	-	32 µM
CC1COc2c(N3CCN(C)CC3)c(F)cc3c(=O)c(C(=O)O)cn1c23	-	5 strains (ofloxacin-resistant)	-	MIC	-	5–10 µg/mL
CC(=O)NC[C@H]1CN(c2ccc(N3CC4CC(=O)CC4C3)c(F)c2)C(=O)O1	-	H37Rv	-	MIC	resazurin	0.5 µg/mL
COc1cc(C(C)C)c(O[C@@H]2O[C@H](CO)[C@@H](O)[C@H](O)[C@H]2O)cc1C	-	H37Rv	-	MIC	agar	62.5 µg/mL
Clc1ccc(CCNCCNCc2ccc3c(c2)OCO3)c(Cl)c1	-	-	-	MIC	-	50 µM
O=C1CC(N2C(=O)C3C4C=CC(CC4)C3C2=O)C(=O)N1	-	H37Rv	-	MIC bound	BACTEC	>12.5 µg/mL
O=c1cc(-c2ccc(Cc3ccc(OC(F)(F)F)cc3)cc2)[nH]c2ccccc12	-	H37Rv	5 µM	inhibition	fluorescence	0%
NNC(=O)c1ccncc1	-	H37Rv	-	MIC	-	0.062 µg/mL
CO[C@H]1/C=C/O[C@@]2(C)Oc3c(C)c(O)c4c(O)c(c(/C=N/N5CCN(C)CC5)c(O)c4c3C2=O)NC(=O)/C(C)=C\C=C\[C@H](C)[C@H](O)[C@@H](C)[C@@H](O)[C@@H](C)[C@H](OC(C)=O)[C@@H]1C	-	Clinical isolate 9	-	MIC	-	0.1 µg/mL
Cc1ccc2c(c1)nc1cc(Nc3ccc(Cl)cc3)c(=NC3CCCCCCC3)cc-1n2-c1ccc(Cl)cc1	-	H37Rv	-	MIC	-	0.2 µg/mL
CC(C)=CCOc1cc(NC(=S)c2ccsc2C)ccc1Cl	-	H37Rv	-	MIC bound	BACTEC	>6.25 µg/mL
COc1ccc2c(=O)c(C)c(-c3ccc(Oc4ccc(OC(F)(F)F)cc4)nc3)[nH]c2c1	-	H37Rv	5 µM	inhibition	fluorescence	87.4%
NC(=S)c1cc(SCc2cccnc2)ccn1	-	My 331/88	-	MIC	-	2 µM
O=[N+]([O-])c1ccc2nc(/C=C/c3ccc4c(c3)OCO4)[nH]c2c1	-	H37Rv (ATCC 27294)	-	MIC	resazurin	>7.25 µg/mL
CN(c1ccccc1Cl)S(=O)(=O)c1ccccc1[N+](=O)[O-]	-	H37Rv	12.5 µg/mL	inhibition	BACTEC	0%
NCCCNCc1ccnc(Nc2ccn(CCCCN3CCC(N)CC3)c(=O)n2)c1	-	H37Rv	-	EC50	turbidity	0.5–1 µM
CN1CCN(c2cc3c(cc2F)c(=O)c(C(=O)O)cn3-c2ccc(F)cc2)CC1	-	64 strains	-	MIC50	-	4 µg/mL
CCNC(=O)NNc1ncnc2c1c(-c1ccc(Cl)cc1)cn2-c1ccc(C)cc1	-	H37Rv	12.5 µg/mL	inhibition	BACTEC	95%
c1cncc(CSc2nc3ccccc3s2)c1	-	My 331/88	-	MIC	-	125 µM
C=CCOc1ccc(/C=C2/NC(=S)NC2=O)cc1	-	H37Rv	-	EC50	-	<6.25 µg/mL
CCn1cc(C(=O)O)c(=O)c2cc(F)c(N3CCNCC3)nc21	-	64 strains	-	MIC50	-	4 µg/mL
CCn1c(C)cc(O)c(-c2ccccc2)c1=O	-	H37Ra	-	MIC	-	64 µg/mL
CC(C)c1ccc2c(c1)CC[C@H]1[C@](C)(CNCCNCCc3cccc(F)c3)CCC[C@]21C	-	-	-	MIC	-	12.5 µM
NC1CCN(CCCCn2ccc(Nc3ccc(C(=O)NC4CNC4)cn3)nc2=O)CC1	-	H37Rv	-	EC50	turbidity	<0.5 µM
O=C1NC(=S)N/C1=C/c1cccc(Oc2ccccc2)c1	-	H37Rv	-	EC50	-	<6.25 µg/mL
O=C1O[C@@H]([C@H](O)[C@H](O)CO)C(O)=C1O	-	H37Rv	6.25 µg/mL	inhibition	-	-4%
CC(=O)O[C@H]1C[C@@]2(C)[C@@H](C[C@@H](O)[C@H]3[C@@]4(C)CC[C@@H](O)[C@@H](C)[C@@H]4CC[C@@]32C)/C1=C(\CCC=C(C)C)C(=O)O	-	64 strains	-	MIC90	-	16 µg/mL
O=C1NC(=S)N/C1=C/c1cccc(OCc2ccccc2)c1	-	H37Rv	6.25 µg/mL	inhibition	-	94%
CCOC(=O)c1nnc2cc(-c3ccccc3)nn2c1C	-	H37Rv	-	MIC bound	resazurin	>6.25 µg/mL
Cc1cc(N)c(-c2ccccc2)c(=O)[nH]1	-	H37Ra	-	MIC	-	128 µg/mL
COc1c(C)c(-c2ccc(Cc3ccccc3)cc2)nc2ccccc12	-	H37Rv	5 µM	inhibition	fluorescence	93.4%
COc1ccc(/C(CC2OC(=O)c3ccccc32)=N/NC(=O)C[N+](C)(C)C)cc1.[Cl-]	-	H37Rv	-	MIC bound	BACTEC	>12.5 µg/mL
COc1cc(OC)c2cc([N+](=O)[O-])c3ccc(=O)oc3c2c1	-	H37RvSr	-	MIC	resazurin	25 µg/mL
O=C1C2=C(c3ccccc31)C(c1ccc([N+](=O)[O-])cc1)NC(=S)N2	-	H37Rv	-	MIC	BACTEC	6.25 µg/mL
N#Cc1cc(SCc2cccnc2)ccn1	-	My 331/88	-	MIC	-	1000 µM
COc1cc2c3c(c1OC)-c1cc4c(cc1CC3N(C=O)CC2)OCO4	-	MMDO	-	MIC	resazurin	>50 µg/mL
NC1CCN(CCCCn2ccc(Nc3ccc(CN4CCC(N)CC4)cn3)nc2=O)CC1	-	H37Rv	-	EC50	turbidity	<0.5 µM
C[C@@H]1OC(O[C@H]2C(O[C@H]3CC[C@@]4(C)C(CC[C@]5(C)C4CC=C4C6CC(C)(C)CC[C@]6(C(=O)O)CC[C@]45C)[C@]3(C)CO)OC[C@H](O)[C@@H]2O)[C@H](O)[C@H](O)[C@H]1O	-	H37Rv	-	MIC	-	>1000 µg/mL
CC(C)c1ccc2c(c1)CC[C@H]1[C@](C)(CNCCNC3CCCCC3C)CCC[C@]21C	-	-	-	MIC	-	25 µM
O=P1(C(Cl)Cl)OCCCCO1	-	H37Rv	-	MIC bound	BACTEC	>12.5 µg/mL
Cc1ccc(/C=C/C(=O)c2ccncc2)cc1	-	H37Rv	-	EC90	resazurin	≥6.25 µg/mL
O=C1NC(=O)/C(=C/c2cccc(OCc3ccc(Cl)cc3)c2)N1	-	H37Rv	6.25 µg/mL	inhibition	-	93%
O=[N+]([O-])c1ccc2nc(/C=C/c3cccc(O)c3)[nH]c2c1	-	H37Rv (ATCC 27294)	-	MIC	resazurin	>7.25 µg/mL
CC(C)(C)NCc1cc(C(C)(C)C)cc(-c2ccc(Cl)cc2)c1O	-	H37Rv	12.5 µg/mL	inhibition	BACTEC	95%
CN[C@@H]1[C@H](O[C@H]2[C@H](O[C@H]3[C@H](O)[C@@H](O)[C@H](N=C(N)N)[C@@H](O)[C@@H]3N=C(N)N)O[C@@H](C)[C@]2(O)C=O)O[C@@H](CO)[C@H](O)[C@H]1O	-	H37Rv	-	MIC	-	0.37 µg/mL
Cc1cc(S(=O)(=O)Nc2n[nH]c(-c3ccc(Cl)cn3)n2)c(S)cc1Cl	-	H37Rv	12.5 µg/mL	inhibition	BACTEC	0%
COc1ccc(Nc2nc(NNC(=O)c3ccncc3)nc(Nc3ccccn3)n2)cc1	-	H37Rv	0.0211 µM	inhibition	BACTEC / radiometric	94%
Cc1[nH]c2c(ccc3c2ccc2c(=O)c(Cl)c(C)[nH]c23)c(=O)c1Cl	-	H37Rv	6.25 µg/mL	inhibition	-	-12%
NS(=O)(=O)c1ccc(Nc2nc(NNC(=O)c3ccncc3)nc(Nc3ccccn3)n2)cc1	-	H37Rv	0.0418 µM	inhibition	BACTEC / radiometric	90%
CCCn1c(C)cc(O)c(-c2ccccc2)c1=O	-	H37Ra	-	MIC	-	64 µg/mL
O=C(NNc1nc(Nc2ccc(O)cc2)nc(Nc2ccccn2)n1)c1ccncc1	-	H37Rv	0.1277 µM	inhibition	BACTEC / radiometric	77%
Cc1cc(O)c(-c2ccc(Cl)cc2)c(=O)[nH]1	-	H37Ra	-	MIC	-	>256 µg/mL
c1ccc2oc(SCc3ccncc3)nc2c1	-	My 331/88	-	MIC	-	250 µM
CCCCCCCCCCOC[n+]1cccc(NCNc2ccc[n+](COCCCCCCCCCC)c2)c1	-	H37Rv	-	MIC	-	<6.25 µg/mL
Cc1c(-c2ccc(N3CCCCC3)cc2)[nH]c2cc(F)cc(F)c2c1=O	-	H37Rv	5 µM	inhibition	fluorescence	100%
Nc1ccc(C(=O)O)c(O)c1	-	Clinical isolate 6	-	MIC	-	0.2 µg/mL
NC[C@H]1OB2OCCOC3C=CC(c4ccccc4)=C1C23	-	H37Rv	-	MIC	resazurin / fluorescence	>600 µM
O=C(NNc1nc(Nc2ccc([N+](=O)[O-])cc2)nc(Nc2ccccn2)n1)c1ccncc1	-	H37Rv	0.1211 µM	inhibition	BACTEC / radiometric	69%
O=C1NC(=S)NC1/C=C/c1ccccc1	-	H37Rv	6.25 µg/mL	inhibition	-	94%
CC(C)c1ccc2c(c1)CC[C@H]1[C@](C)(CNCCNCCc3ccccc3)CCC[C@]21C	-	-	-	MIC	-	12.5 µM
O=c1c2ccccc2nc(-c2ccccc2)n1-c1nnc(C(F)(F)F)s1	VERO	H37Rv	-	MIC	BACTEC	12.5 µg/mL
CCCCCC(CC(=O)N1N=CCCC1C(=O)N[C@H]1COC(=O)C2C[C@@H](C)CNN2C(=O)[C@H](C)NC(=O)[C@@H](CC(C)C)NC1=O)C(=O)O	-	246	-	MBC	-	50 µg/mL
CN[C@@H]1[C@H](O[C@H]2[C@H](O[C@H]3[C@H](O)[C@@H](O)[C@H](N=C(N)N)[C@@H](O)[C@@H]3N=C(N)N)O[C@@H](C)[C@]2(O)C=O)O[C@@H](CO)[C@H](O)[C@H]1O	-	Clinical isolate 12	-	MIC	-	50 µg/mL
COC(=O)C1=C(C(=O)OC)P2(c3ccccc3)(c3ccccc3)N(C)C(=S)N2C1(c1ccccc1)c1ccccc1	-	H37Rv	-	MIC	BACTEC	≥12.5 µg/mL
Brc1ccc2nc(/C=C/c3ccccc3)[nH]c2c1	-	H37Rv (ATCC 27294)	-	MIC	resazurin	>7.25 µg/mL
O=C(/C=C/c1ccccc1O)c1ccncc1	-	H37Rv	-	EC90	resazurin	≥50 µg/mL
CC(=O)OCc1cc(=O)n(C)c2c3c4c(cc12)c(C)cc(=O)n4CO3	-	PAS-R	-	MIC	-	1.6 µg/mL
Cc1cc(O)c(-c2ccccc2)c(=O)n1Cc1ccccc1	-	H37Ra	-	MIC	-	8 µg/mL
CCCCCCCCCCCOC[n+]1cccc(NCn2nnc3ccccc32)c1	-	H37Rv	-	MIC	-	<6.25 µg/mL
NC1=CN(CCCO)C2=N/C(=C\c3ccco3)C(=O)N12	-	-	0.5 µM	inhibition	BACTEC	0%
Nc1ccc(/C=C/C(=O)c2ccncc2)cc1	-	H37Rv	-	EC90	resazurin	≥50 µg/mL
COc1cc(/C=N/c2nncs2)ccc1O	-	H37Rv	12.5 µg/mL	inhibition	BACTEC	-18%
Cc1ccc(/C=C/c2nc3ccc([N+](=O)[O-])cc3[nH]2)cc1	-	H37Rv (ATCC 27294)	-	MIC	resazurin	>7.25 µg/mL
Clc1ccccc1-c1nc(-c2ccncc2)no1	-	H37Rv	-	MIC bound	resazurin	>6.25 µg/mL
Cc1c(-c2ccc(Cc3ccc(F)cc3)cc2)[nH]c2ccccc2c1=O	-	H37Rv	5 µM	inhibition	fluorescence	65.3%
COC(=O)NNC(=O)C(=O)NNC(=O)OC	-	H37Rv	12.5 µg/mL	inhibition	BACTEC	-3%
NC1CCN(CCCCn2ccc(Nc3ccc(COCCNCC4CC4)cn3)nc2=O)CC1	-	H37Rv	-	EC50	turbidity	≥1 µM
NC(=S)C1OC(COC(=O)c2ccccc2)C(OC(=O)c2ccccc2)C1OC(=O)c1ccccc1	-	H37Rv	-	MIC bound	BACTEC	>12.5 µg/mL
O=C(O)c1cn(-c2ccc(F)cc2)c2cc(N3CCNCC3)c(F)cc2c1=O	-	64 strains	-	MIC90	-	8 µg/mL

Repeating the final 5 entries:

structure	cell line	strain or isolate	dose	read-out	read by	value
Cc1c(-c2ccc(Cc3ccc(F)cc3)cc2)[nH]c2ccccc2c1=O	-	H37Rv	5 µM	inhibition	fluorescence	65.3%
COC(=O)NNC(=O)C(=O)NNC(=O)OC	-	H37Rv	12.5 µg/mL	inhibition	BACTEC	-3%
NC1CCN(CCCCn2ccc(Nc3ccc(COCCNCC4CC4)cn3)nc2=O)CC1	-	H37Rv	-	EC50	turbidity	≥1 µM
NC(=S)C1OC(COC(=O)c2ccccc2)C(OC(=O)c2ccccc2)C1OC(=O)c1ccccc1	-	H37Rv	-	MIC bound	BACTEC	>12.5 µg/mL
O=C(O)c1cn(-c2ccc(F)cc2)c2cc(N3CCNCC3)c(F)cc2c1=O	-	64 strains	-	MIC90	-	8 µg/mL